Deep mutational scan of the Zika virus protease

Values reported by Ni et al. 2025 (doi:10.1038/s41467-025-63602-z).

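Pools of virus carrying all single amino acid changes were selected for growth in Huh-7.5 cells. Sequencing of three replicate libraries (two for positions 207-308) was averaged into one effect per change. The study looked for pockets that tolerate few changes, as a guide for inhibitor design.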

Protein: NS2B and the protease part of NS3 of Zika virus strain MR766. Positions count along the chain below; NS2B spans 2-131 and NS3 starts at 132.
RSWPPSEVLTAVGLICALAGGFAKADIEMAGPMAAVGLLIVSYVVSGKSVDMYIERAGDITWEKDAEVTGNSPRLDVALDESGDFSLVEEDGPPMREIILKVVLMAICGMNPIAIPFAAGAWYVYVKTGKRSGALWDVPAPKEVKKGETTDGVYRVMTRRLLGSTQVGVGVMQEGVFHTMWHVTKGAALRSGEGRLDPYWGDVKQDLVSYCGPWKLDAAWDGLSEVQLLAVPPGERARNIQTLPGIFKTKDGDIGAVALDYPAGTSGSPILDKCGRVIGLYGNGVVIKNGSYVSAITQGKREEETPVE

Scale: log2 effect, wild type = 0; the lower, the more harmful to the virus. A change reads original residue, position, new residue. This list holds changes to glutamate only. Values above 0 are not proof of better growth: six high scorers were tested one by one, five grew less well than wild type and one about as well.

- A119E: -5.70
- G120E: -5.21
- A121E: -5.70
- W122E: -5.14
- Y123E: -5.69
- V124E: -6.21
- Y125E: -5.23
- V126E: -2.05
- K127E: -2.86
- T128E: -3.27
- G129E: -5.41
- K130E: -5.47
- R131E: -5.67
- S132E: -5.33
- G133E: -5.38
- A134E: -5.41
- L135E: -6.76
- W136E: -6.46
- D137E: -6.84
- V138E: -5.85
- P139E: -5.03
- A140E: -5.76
- P141E: -4.25
- K142E: -3.74
- V144E: -3.56
- K145E: -1.08
- K146E: -3.16
- G147E: -4.46
- T149E: -3.51
- T150E: -3.27
- D151E: -1.14
- G152E: -5.77
- V153E: -5.63
- Y154E: -5.04
- R155E: -5.45
- V156E: -6.00
- M157E: -4.50
- T158E: -4.95
- R159E: -5.11
- R160E: -4.95
- L161E: -4.67
- L162E: -4.76
- G163E: -5.00
- S164E: -1.34

Extract of 3 entries:

With P141E the assay gave -4.25.
With R131E the assay gave -5.67.
With W136E the assay gave -6.46.

Position 1 still belongs to NS2A. In the paper, -1 or higher counts as tolerated. Positions 1-103, 104-206 and 207-308 were made and measured as separate libraries.